## Potato spindle tuber viroid, loop 15: variant abundance in plants

From the data files of Wu et al. 2024, doi:10.1371/journal.ppat.1012142.

Region: loop 15 of PSTVd (intermediate strain), upper and lower strand joined, each 5' to 3', the first 7 letters being the upper strand, closing pairs included. Wild type: GGAAACCGCUACUAC. Varied positions (N): GGAAACCGNNNNNNC.

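A pool of all variants was put on leaves of three Nicotiana benthamiana plants. Progeny were sequenced from the inoculated region (day 5), the margin of the inoculated leaf (day 10) and systemic leaves (day 12).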

Values are reads per thousand in the sample; higher means more abundant, 0 means not found.
Each site shows the three plants.
"Pool" is the share in the plasmid pool used as inoculum, on the same scale.
The inoculated region was read from the minus strand, the other sites from the plus strand.

For GGAAACCGAGGUGGC (pool 0.208) the result was inoculated region 0.131 / 0.112 / 0.0381; leaf margin 0 / 0 / 0; systemic leaves 0 / 0 / 0. With GGAAACCGUGUGCUC (pool 0.128) the assay gave inoculated region 0.0819 / 0.129 / 0.0762; leaf margin 0 / 0 / 0; systemic leaves 0 / 0 / 0. GGAAACCGGGACGUC (pool 0.192) gave inoculated region 0.0655 / 0.0482 / 0.0381; leaf margin 0 / 0 / 0; systemic leaves 0 / 0 / 0. GGAAACCGUGUUUGC (pool 0.208) gave inoculated region 0.131 / 0.0803 / 0.0571; leaf margin 0.0162 / 0 / 0.0200; systemic leaves 0 / 0 / 0. For GGAAACCGAAGAGAC (pool 0.192) the result was inoculated region 0.0819 / 0.0803 / 0.0571; leaf margin 0 / 0 / 0.0200; systemic leaves 0.0161 / 0 / 0.

GGAAACCGACCAACC (pool 0.0960) read inoculated region 0.0819 / 0.0803 / 0.0762; leaf margin 0.0162 / 0 / 0.0200; systemic leaves 0 / 0 / 0. GGAAACCGGUAGCGC (pool 0.176) gave inoculated region 0.164 / 0.0803 / 0.0571; leaf margin 0 / 0.0223 / 0.0401; systemic leaves 0 / 0 / 0. GGAAACCGUUAAGCC (pool 0.176) read inoculated region 0.0983 / 0.161 / 0.0571; leaf margin 0.0323 / 0.0668 / 0; systemic leaves 0 / 0 / 0. GGAAACCGCGGCCAC (pool 0.128) read inoculated region 0.0819 / 0.0803 / 0.0190; leaf margin 0 / 0 / 0.0200; systemic leaves 0 / 0 / 0. GGAAACCGUCUUCCC (pool 0.176) read inoculated region 0.0655 / 0.0803 / 0.0952; leaf margin 0 / 0 / 0.0200; systemic leaves 0 / 0 / 0.

GGAAACCGCAGGAAC (pool 0.240) gave inoculated region 0.131 / 0.0803 / 0.209; leaf margin 0 / 0 / 0.0200; systemic leaves 0.0161 / 0 / 0. With GGAAACCGCCUUCGC (pool 0.240) the assay gave inoculated region 0.0655 / 0.0964 / 0.0381; leaf margin 0 / 0 / 0; systemic leaves 0 / 0 / 0. GGAAACCGACGUUUC (pool 0.272) read inoculated region 0.0655 / 0.112 / 0.0762; leaf margin 0 / 0.0223 / 0.0401; systemic leaves 0 / 0 / 0. GGAAACCGCCCCACC (pool 0.240) gave inoculated region 0.147 / 0.0643 / 0.133; leaf margin 0 / 0.0445 / 0; systemic leaves 0 / 0 / 0. With GGAAACCGAGUAGCC (pool 0.160) the assay gave inoculated region 0.115 / 0.0803 / 0.0762; leaf margin 0.0162 / 0.0223 / 0.0200; systemic leaves 0 / 0 / 0.

GGAAACCGGGGACAC (pool 0.224) gave inoculated region 0.0164 / 0.0803 / 0.209; leaf margin 0.0162 / 0 / 0.0200; systemic leaves 0 / 0 / 0. GGAAACCGCAAAGUC (pool 0.224) gave inoculated region 0 / 0.0964 / 0.0952; leaf margin 0 / 0 / 0.0401; systemic leaves 0.0161 / 0 / 0. GGAAACCGCUUGACC (pool 0.320) gave inoculated region 0.0164 / 0.129 / 0.0571; leaf margin 0 / 0 / 0; systemic leaves 0 / 0 / 0. With GGAAACCGGGCUGUC (pool 0.256) the assay gave inoculated region 0.0655 / 0.0803 / 0.0952; leaf margin 0 / 0 / 0; systemic leaves 0 / 0 / 0. For GGAAACCGCAGGUGC (pool 0.256) the result was inoculated region 0.393 / 0.353 / 0.305; leaf margin 0.0323 / 0 / 0; systemic leaves 0 / 0 / 0.

GGAAACCGCUACGGC (pool 0.224) gave inoculated region 0.0819 / 0.225 / 0.0571; leaf margin 0 / 0 / 0.0200; systemic leaves 0 / 0 / 0. With GGAAACCGUAGUUGC (pool 0.224) the assay gave inoculated region 0.0819 / 0.129 / 0.0762; leaf margin 0 / 0.0223 / 0.0200; systemic leaves 0 / 0 / 0. For GGAAACCGCUAGUAC (pool 0.272) the result was inoculated region 31.2 / 31.5 / 35.7; leaf margin 16.6 / 11.4 / 20.9; systemic leaves 8.61 / 6.50 / 6.04. GGAAACCGCUAAUGC (pool 0.224) read inoculated region 0.409 / 0.353 / 0.362; leaf margin 0.162 / 0.0668 / 0.0601; systemic leaves 0.0805 / 0.0303 / 0.0912. With GGAAACCGGCACCGC (pool 0.224) the assay gave inoculated region 0.0819 / 0.161 / 0.152; leaf margin 0 / 0 / 0; systemic leaves 0 / 0 / 0.

GGAAACCGCCAUUUC (pool 0.192) gave inoculated region 0.311 / 0.386 / 0.419; leaf margin 0.0970 / 0.0668 / 0.220; systemic leaves 0.0483 / 0.0303 / 0.160. GGAAACCGCUAGCCC (pool 0.256) read inoculated region 0.0819 / 0.0482 / 0.114; leaf margin 0 / 0 / 0; systemic leaves 0 / 0 / 0. GGAAACCGGAGGAGC (pool 0.192) gave inoculated region 0.0491 / 0.112 / 0.0952; leaf margin 0 / 0.0223 / 0.0200; systemic leaves 0 / 0 / 0. For GGAAACCGUGUAUCC (pool 0.288) the result was inoculated region 0.115 / 0.177 / 0.171; leaf margin 0.0323 / 0.0445 / 0; systemic leaves 0 / 0 / 0. GGAAACCGUUAGGCC (pool 0.144) gave inoculated region 0.311 / 0.418 / 0.343; leaf margin 0.0647 / 0.0891 / 0.160; systemic leaves 0.129 / 0 / 0.

GGAAACCGACCUCUC (pool 0.272) gave inoculated region 0.0819 / 0.0643 / 0.114; leaf margin 0 / 0 / 0; systemic leaves 0 / 0 / 0. For GGAAACCGUAUGCGC (pool 0.288) the result was inoculated region 0.0655 / 0.0321 / 0.0190; leaf margin 0.0162 / 0.0223 / 0.0200; systemic leaves 0 / 0 / 0. With GGAAACCGGGCGUCC (pool 0.224) the assay gave inoculated region 0.0983 / 0.0321 / 0.133; leaf margin 0.0323 / 0 / 0.0401; systemic leaves 0.0161 / 0 / 0. GGAAACCGGGACUUC (pool 0.224) gave inoculated region 0.262 / 0.193 / 0.419; leaf margin 0.0808 / 0.0445 / 0.220; systemic leaves 0.0483 / 0 / 0.

The first 2 entries again:

| sequence | pool | inoculated region | leaf margin | systemic leaves |
|---|---|---|---|---|
| GGAAACCGAGGUGGC | 0.208 | 0.131 / 0.112 / 0.0381 | 0 / 0 / 0 | 0 / 0 / 0 |
| GGAAACCGUGUGCUC | 0.128 | 0.0819 / 0.129 / 0.0762 | 0 / 0 / 0 | 0 / 0 / 0 |

Samples held 43,870 to 66,106 reads, so the smallest values rest on one or two reads.
Sequences that differ at fixed positions probably stem from PCR or sequencing errors, and defective variants can be carried along by functional ones.
For reference, wild type rose from 33.9 per thousand in the pool to 202, 200, 159 (inoculated region), 724, 746, 710 (leaf margin) and 856, 883, 880 (systemic leaves).